Measurements reported in patent US20120269870A1, “SWITCHABLE POLYMERS AND SURFACES WITH REVERSIBLY SWITCHABLE PROPERTIES” (University of Washington through its Center for …, priority 2011, published 2012).
“Also recorded” adds a separate entry of the source.

Assay: Amino reactivity of CB-Ring with model molecule benzylamine (HPLC-MS)
Type: physicochemical
Details: for conjugation efficiency with benzylamine: 5 molar excess of benzylamine, 30 min

SMILES | conjugation efficiency with benzylamine (acetonitrile) | conjugation efficiency with benzylamine (pure water) | conjugation with benzylamine (in words) (control, zwitterionic form as starting material)
C=C(C)C(=O)OCC1C[N+](C)(C)CC(=O)O1 (stereo not drawn) [CB-Ring, 2-(Methacryloyloxymethyl)-4,4-dimethyl-6-oxomorpholin-4-ium] | 83% | 60% | 
C=C(C)C(=O)OCC(O)C[N+](C)(C)CC(=O)[O-] (stereo not drawn) [CB—OH, 2-((2-Hydroxy-3-(methacryloyloxy)propyl)dimethylammonio)acetate] |  |  | no conjugation; also recorded: no formation of CB—OH-benzyl conjugates
